PubChem BioAssay AID504761 | Drosophila RNAi Screening Center, 2011

Aim: 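Insect host genes that dengue virus relies on to spread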 (primary screen)
System: D.Mel-2 cells from Drosophila
Knock-down reagent: long dsRNA against Drosophila genes
Challenge: infection with dengue virus type 2; dose and infection time not stated
Read-out: 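Cells stained for dengue envelope protein and imaged; percent of infected cells per well on duplicate plates, ranked by infection, with stained nuclei counted for cell number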
Reading the numbers: infection score: higher = more virus-infected cells; cell count: higher = more cells in the well
Rule for the call: 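Low infection ranks in the two replicates (chance level up to 0.065) followed by a retest with a 1.5-fold or larger significant decrease, p below 0.05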
Meaning of the calls: active = confirmed: knock-down lowers infection; inactive = not picked or not confirmed
In all, the deposit lists about 22,000 reagents; below is a random part of those with a known target gene and a result. Over the whole deposit, 116 (0.52%) are marked active. 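Calls depend on retest data that are not deposited; infection was ranked per plate without normalising between plates; the unit of the infection score is not given.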 Raw values vary from plate to plate and are shown uncorrected. Reagents against one gene are numbered here. A plus sign joins genes that one reagent is predicted to hit. Not all columns of the deposit are shown. Not given: the amount of reagent, the time to read-out.

Lapsyn — infection score, replicate 1 = 13.7; cell count, replicate 1 = 6154; activity call = inactive
CG8870 — infection score, replicate 1 = 8.16; cell count, replicate 1 = 6412; activity call = inactive
psh #1 — infection score, replicate 1 = 2.59; cell count, replicate 1 = 6254; activity call = inactive
psh #2 — infection score, replicate 1 = 3.36; cell count, replicate 1 = 745; activity call = inactive
bgm #1 — infection score, replicate 1 = 25.5; cell count, replicate 1 = 5924; activity call = inactive
bgm #2 — infection score, replicate 1 = 5.91; cell count, replicate 1 = 6698; activity call = inactive
BBS5 #1 — infection score, replicate 1 = 5.23; cell count, replicate 1 = 6219; activity call = inactive
BBS5 #2 — infection score, replicate 1 = 6.54; cell count, replicate 1 = 6610; activity call = inactive
RpS27 #1 — infection score, replicate 1 = 4.31; cell count, replicate 1 = 5038; activity call = inactive
RpS27 #2 — infection score, replicate 1 = 18.5; cell count, replicate 1 = 2653; activity call = inactive
Syx16 #1 — infection score, replicate 1 = 0.74; cell count, replicate 1 = 6934; activity call = inactive
Syx16 #2 — infection score, replicate 1 = 9.31; cell count, replicate 1 = 6971; activity call = inactive
CG32176 #1 — infection score, replicate 1 = 7.25; cell count, replicate 1 = 3586; activity call = inactive
CG32176 #2 — infection score, replicate 1 = 5.15; cell count, replicate 1 = 3882; activity call = inactive
mamo #1 — infection score, replicate 1 = 1.13; cell count, replicate 1 = 6722; activity call = inactive
mamo #2 — infection score, replicate 1 = 11.2; cell count, replicate 1 = 6094; activity call = inactive
Gyc32E #1 — infection score, replicate 1 = 2.11; cell count, replicate 1 = 5840; activity call = inactive
Gyc32E #2 — infection score, replicate 1 = 4.76; cell count, replicate 1 = 6170; activity call = inactive

4 entries from above, sorted by “cell count, replicate 1”, ascending:
CG32176 #1 — infection score, replicate 1 = 7.25; cell count, replicate 1 = 3586; activity call = inactive
CG32176 #2 — infection score, replicate 1 = 5.15; cell count, replicate 1 = 3882; activity call = inactive
mamo #1 — infection score, replicate 1 = 1.13; cell count, replicate 1 = 6722; activity call = inactive
Syx16 #2 — infection score, replicate 1 = 9.31; cell count, replicate 1 = 6971; activity call = inactive

Further results:
cysu #1 — infection score, replicate 1 = 5.64; cell count, replicate 1 = 5120; activity call = inactive
cysu #2 — infection score, replicate 1 = 13.7; cell count, replicate 1 = 5142; activity call = inactive
Cyp4d8 #1 — infection score, replicate 1 = 8.13; cell count, replicate 1 = 6481; activity call = inactive
Cyp4d8 #2 — infection score, replicate 1 = 22.2; cell count, replicate 1 = 6185; activity call = inactive
Rab2 #1 — infection score, replicate 1 = 16.3; cell count, replicate 1 = 6379; activity call = inactive
Rab2 #2 — infection score, replicate 1 = 10.3; cell count, replicate 1 = 6780; activity call = inactive
CG42457 (retired record) + cpo #1 — infection score, replicate 1 = 6.5; cell count, replicate 1 = 6014; activity call = inactive
CG42457 (retired record) + cpo #2 — infection score, replicate 1 = 0.53; cell count, replicate 1 = 6360; activity call = inactive
CG42457 (retired record) + cpo #3 — infection score, replicate 1 = 0.97; cell count, replicate 1 = 6470; activity call = inactive
